From patent publication US5306619, “Screening assay for the detection of DNA-binding molecules” (Genelabs Technologies, Inc.)
Where cells or extracts were used, other partners may take part.

Amino acid sequences for entries named in this document (tags omitted). A change or cut given only in a name is not applied to a line headed by its entry.
UniProt P10193: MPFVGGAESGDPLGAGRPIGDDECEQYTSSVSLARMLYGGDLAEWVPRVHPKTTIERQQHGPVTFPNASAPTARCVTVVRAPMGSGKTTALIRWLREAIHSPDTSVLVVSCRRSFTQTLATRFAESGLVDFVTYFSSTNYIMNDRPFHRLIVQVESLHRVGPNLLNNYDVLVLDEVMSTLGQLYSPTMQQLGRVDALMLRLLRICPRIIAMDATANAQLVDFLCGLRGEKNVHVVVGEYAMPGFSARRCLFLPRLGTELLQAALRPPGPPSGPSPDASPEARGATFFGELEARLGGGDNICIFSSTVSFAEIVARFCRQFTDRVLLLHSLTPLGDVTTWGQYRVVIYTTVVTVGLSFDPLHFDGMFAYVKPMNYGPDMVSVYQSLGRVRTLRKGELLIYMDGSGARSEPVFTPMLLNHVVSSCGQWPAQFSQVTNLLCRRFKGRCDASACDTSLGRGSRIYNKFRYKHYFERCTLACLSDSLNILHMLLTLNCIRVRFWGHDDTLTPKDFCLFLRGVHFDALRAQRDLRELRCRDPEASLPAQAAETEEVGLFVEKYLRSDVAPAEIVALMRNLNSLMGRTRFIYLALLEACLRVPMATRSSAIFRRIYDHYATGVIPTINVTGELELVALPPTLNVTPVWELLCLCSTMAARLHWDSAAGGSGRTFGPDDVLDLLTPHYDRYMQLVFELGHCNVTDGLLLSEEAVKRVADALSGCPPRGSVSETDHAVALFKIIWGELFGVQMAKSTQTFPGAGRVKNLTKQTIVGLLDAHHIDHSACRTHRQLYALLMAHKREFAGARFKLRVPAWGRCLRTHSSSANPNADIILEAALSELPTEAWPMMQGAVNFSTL

Molecular target: UL9 full length (Herpes simplex virus 1) (UniProt P10193)
Assay: competition with a labelled probe
Conditions: unlabelled competitor used to measure dissociation; protein in an extract

**Q.** Does “GGTCGTTCGCACTTCGC (double strand) [17 bp competitor]” bind?
**A.** binds
